As usually defined, the inhibition is the relative decrease from the control value, in per cent.

By UniProt entry, the sequences of proteins in these tests, tags left out.
UniProt P9WFX0, whole entry: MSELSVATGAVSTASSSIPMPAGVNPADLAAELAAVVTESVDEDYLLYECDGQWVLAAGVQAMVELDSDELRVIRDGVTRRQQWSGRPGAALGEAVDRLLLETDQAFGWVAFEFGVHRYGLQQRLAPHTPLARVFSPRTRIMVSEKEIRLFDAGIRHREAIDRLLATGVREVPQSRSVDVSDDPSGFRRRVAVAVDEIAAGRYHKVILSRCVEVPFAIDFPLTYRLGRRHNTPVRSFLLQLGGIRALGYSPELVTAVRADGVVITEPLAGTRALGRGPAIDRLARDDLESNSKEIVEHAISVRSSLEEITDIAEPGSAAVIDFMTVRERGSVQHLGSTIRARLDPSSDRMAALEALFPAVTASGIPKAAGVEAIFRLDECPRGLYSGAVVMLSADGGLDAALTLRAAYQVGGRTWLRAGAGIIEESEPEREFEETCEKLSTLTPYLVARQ

The list shows a part of the results, in another mix than the full data. Activity calls are given as the source filed them. Rule as the data show it: active = inhibition mostly above about 56% (no sharp cut-off); inactive = mostly below about 77%.

The target in the assay is Salicylate synthase (Mycobacterium tuberculosis (strain CDC 1551 / Oshkosh)) (UniProt P9WFX0). The assay is described as follows: inhibitors of M. tuberculosis MbtI – biochemical, fluorescence intensity, primary screen (AID 493033). The note with it: purified MbtI enzyme, fluorescence intensity read-out; active compounds read high; concentration not given here.
In the case of `Cc1ccccc1NP(C)(=O)Nc1ccccc1C`, the inhibition was inactive: -3.2%. Turning to `C/C1=C2N=C(/C=C3N=C(/C(C)=C4\[N-][C@@](C)([C@@H]5N=C1[C@](C)(CCC(=O)NC[C@@H](C)OP(=O)([O-])O[C@H]1[C@@H](O)[C@@H](n6cnc7cc(C)c(C)cc76)O[C@@H]1CO)[C@H]5CC(N)=O)[C@@](C)(CC(N)=O)[C@@H]4CCC(N)=O)[C@@](C)(CC(N)=O)[C@@H]\3CCC(N)=O)C(C)(C)[C@@H]/2CCC(N)=O.[C-]#N.[Co+3]`, the inhibition was inactive: -1.35%. As for `O=P(Nc1nccs1)(c1ccccc1)c1ccccc1`, the inhibition is inactive: -5.4%. Consider `Nc1nonc1OCc1nonc1COc1nonc1N`, for which the inhibition is inactive: 0.8%.

Regarding `C=CCN1CCN(CCOC(=O)C(O)(c2ccccc2)c2ccccc2)CC1`, the inhibition was inactive: -1.75%. Consider `CC1CCC(C(C)C)C(OP(=O)(Nc2nccs2)c2ccccc2)C1` (stereo not drawn), for which the inhibition was inactive: -9.8%. The figure for `COc1cc2c(cc1NP(C)(=O)Oc1ccccc1)oc1ccccc12` (stereo not drawn) is inactive: 124%. The figure for `COC(=O)c1cc2c(s1)N=C(c1ccccc1)N(C)P2(=O)N1CCOCC1` (stereo not drawn) is inactive: 2.65%.

`O=C(OCC1CN(Cc2ccccc2)CCO1)C(O)(c1ccccc1)c1ccccc1` (stereo not drawn): the inhibition is inactive: -10.6%.

As to `O=C(OCCN1CCN(CCOCc2ccccc2)CC1)C(O)(c1ccccc1)c1ccccc1`, the inhibition is inactive: 0%.

For the compound `Cc1cc(NC2=NC3C(C(=O)N(C)C(=O)N3C)N2C)n(-c2ccccc2)n1` (stereo not drawn), the inhibition is inactive: -0.3%. As for `O=P1(Nc2nncs2)C=C(c2ccccc2)SC(c2ccccc2)=C1`, the inhibition was inactive: 35.8%. The figure for `O=P1(Nc2nc3ccc(Cl)cc3s2)COc2ccccc2O1` (stereo not drawn) is inactive: -8.4%; for `CP(=O)(Nc1ccccn1)Oc1ccccc1` (stereo not drawn) it is inactive: 37.1%; for `CCOP(OCC)N1CCOCC1` it is inactive: -6.05%. The figure for `O=C(COC(=O)C(O)(c1ccccc1)c1ccccc1)N1CCCCC1` is inactive: 2.1%; for `CN(C(=O)Cc1ccc(Cl)c(Cl)c1)[C@H]1CCCC[C@@H]1N1CCCC1` it is inactive: -18.1%. Consider `CCOP(=Nc1nc2ccccc2n2nnnc12)(OCC)OCC`, for which the inhibition was inactive: 186%. The result for `CP(=O)(Nc1ccc(Cl)cc1)Oc1ccc(F)cc1` (stereo not drawn) reads inactive: -5.4%. The result for `CCc1ccc(OP(C)(=O)Nc2cccnc2)cc1` (stereo not drawn) reads inactive: 5.5%; that for `OCCSCCO`, inactive: -12.6%. With `CCOC(=O)c1ccc(NP(C)(=O)Oc2ccc(OC)cc2)cc1` (stereo not drawn), the inhibition was inactive: 7.65%. The result for `Cc1cccc(NP(C)(=O)Oc2ccccc2)c1` (stereo not drawn) reads inactive: 2.2%.

As for `CP(=O)(NC(=O)Nc1ccccc1)Oc1ccccc1` (stereo not drawn), the inhibition was inactive: -10.1%.

In the case of `COP1(=S)c2c(C)nn(-c3ccccc3)c2N=C(c2ccccc2)N1C1CC1` (stereo not drawn), the inhibition was inactive: 11.6%. In the case of `COc1ccccc1OP(C)(=O)Nc1ccccc1` (stereo not drawn), the inhibition is inactive: -0.55%. The figure for `CP(=O)(Nc1ccc(Cl)cc1)Oc1ccccc1` (stereo not drawn) is inactive: -11.8%; for `COP1(=S)N=C2c3ccccc3CN2c2cc(N(C)C)ccc21` (stereo not drawn) it is inactive: 33.1%.

Take `Cc1cc(C)cc(OP(C)(=O)NCc2ccccc2)c1` (stereo not drawn): the inhibition was inactive: -9.6%. The figure for `Nc1nonc1OCCOc1nonc1N` is inactive: -11.9%; for `CC1=Nc2ccc(C(F)(F)F)cc2C1(C)C` it is inactive: 15.8%; for `O=C(O)C1(O)c2ccccc2-c2ccccc21` it is inactive: -9.8%. The figure for `O=P1(Nc2nccs2)CC=CC1` is inactive: -1.2%. Regarding `O=C(OC1CN2CCC1CC2)C12CC3CC(CC(C3)C1)C2` (stereo not drawn), the inhibition was inactive: 3.7%. In the case of `Cc1cccc(OCC(=O)OC2CN3CCC2CC3)c1` (stereo not drawn), the inhibition was inactive: -3.35%. In the case of `O=C(OC1CN2CCC1CC2)c1ccc(Cl)cc1` (stereo not drawn), the inhibition was inactive: -7.1%. In the case of `CCOP1(=S)c2c(C)nn(CCC#N)c2N=C(c2ccc(F)cc2)N1C` (stereo not drawn), the inhibition is inactive: 47.3%.

Take `O=P1(Nc2nc3ccc(Cl)cc3s2)COc2ccccc2OC1`: the inhibition was inactive: -2.2%.

As to `NC(=O)Nc1ccc([As](=O)(O)O)cc1`, the inhibition is inactive: 0.5%.

With `NC(=O)COC(=O)C1(O)c2ccccc2-c2ccccc21`, the inhibition was inactive: -9.2%. With `Cc1cc(C)cc(OP(C)(=O)Nc2ccc(OC(C)C)cc2)c1` (stereo not drawn), the inhibition is inactive: -44.2%.

As to `CCSP(=O)(c1ccccc1)c1ccccc1`, the inhibition is inactive: -15.8%. With `Cc1nn(CCC#N)c2c1P(=O)(Nc1ccccc1Cl)N(C)C(c1ccc(F)cc1)=N2` (stereo not drawn), the inhibition is inactive: 17.9%. The result for `CP(=O)(N1CCOCC1)N1CCOCC1` reads inactive: -6.85%. `Cc1ccc(C(=O)OC2CN3CCC2CC3)cc1` (stereo not drawn): the inhibition is inactive: -11.7%. The result for `Cc1nn(-c2ccccc2)c2c1P(=O)(N1CCOCC1)N(C)C(c1ccccc1)=N2` (stereo not drawn) reads inactive: 8%. For `Nc1nonc1-c1no[n+]([O-])c1-c1nonc1N`, the inhibition was inactive: 5.95%. The result for `O=P1(Nc2ccccn2)COc2ccccc2OC1` reads inactive: -4.3%.

Values taken from PubChem BioAssay AID493033 (ICCB-Longwood Screening Facility, Harvard Medical School, 2011).
